Read-outs that look alike come from different tables or passages of the source.
Test system: NikA
Type: binding, Klebsiella pneumoniae
Settings: NikA 2 µM alone (Fig S12A)

## [Cl-].[Cl-].[Zn+2] [ZnCl2]
ZnCl2 12.5 μM
  NikA melting temperature: 59 ºC
ZnCl2 25 μM
  NikA melting temperature: 60 ºC
ZnCl2 50 μM
  NikA melting temperature: 62 ºC

Reference: PMC11091072, “Targeting bacterial nickel transport with aspergillomarasmine A suppresses virulence-associated Ni-dependent enzymes” (Nature Communications, 2024)
